# Biological target: PAN endonuclease (Influenza A virus, UniProt C3W5S0)
# Experiment: FRET-based enzymatic assay of PAN endonuclease inhibition
# Assay type: biochemical
# Conditions: read-out: IC50 (dark)
substance,measurement,value
"[Ru(2,2´-bipyridine)2(pyridine)2][Cl]2 [Compound 9]",IC50,> 100 µM
